Anti-infective test results gathered from many reports (values: NIAID ChemDB through PubChem).

Shared fields: growth or infection tests; organism: Mycobacterium tuberculosis

MIC50, MIC90 and the like: level of inhibition, or share of isolates inhibited. Rows are shuffled and stem from different studies. MIC bound: limit read from a one-dose screen. Percent inhibition refers to the dose given; in toxicity tests it is the harm to the cells. ECn: concentration that inhibits the pathogen or its effect by n%. An empty or dashed field is not shown.

compound	setting	read by	cell line	tested at	changes	strain or isolate	measure	value
O=C(NNCc1cccc(C(F)(F)F)c1)c1ccncc1	-	-	-	-	-	H37Rv (rifampin-resistant)	MIC	1.95 µg/mL
O=C(O)c1c(C2CCCCC2)nc2ccccc2c1C1CCCCC1	-	-	-	-	-	H37Rv	MIC	>6.25 µg/mL
CC(C)CC(NC(=O)C(Cc1ccccc1)NC(=O)C1CCCN1C(=O)OCc1ccccc1)C(=O)OC(C)(C)C	-	BACTEC	-	12.5 µg/mL	-	H37Rv	inhibition	-18%
CO[C@H]1/C=C/O[C@@]2(C)Oc3c(C)c(O)c4c(O)c(c(/C=N/O)c(O)c4c3C2=O)NC(=O)/C(C)=C\C=C\[C@H](C)[C@H](O)[C@@H](C)[C@@H](O)[C@@H](C)[C@H](OC(C)=O)[C@@H]1C	-	-	-	-	-	H37Rv	MIC	5 µg/mL
O=C1NC(=S)N/C1=C/c1cccc(Br)c1	-	BACTEC	-	-	-	H37Rv	EC50	<6.25 µg/mL
C=C(C)[C@@H]1CC[C@@]2(CO)C1C1CCC3[C@@]4(C)CC[C@H](O)C(C)(C)C4CC[C@@]3(C)[C@]1(C)C[C@@H]2O	-	-	-	-	-	H37Rv	MIC	>64 µg/mL
O=C(O)Cc1cc(C2CCCCC2)nc2c(C3CCCCC3)cccc12	-	-	-	-	-	H37Rv	MIC	>6.25 µg/mL
COC(=O)C1=C2C3(O)CC4CC5C3CCC(C)N5C24C2CCCC(OC)C2C1OC(=O)c1ccccc1	-	BACTEC	-	-	-	H37Rv	MIC	≥128 µg/mL
COC(=O)c1cc(C2CCCCC2)c2ccccc2n1	-	-	-	-	-	H37Rv	MIC	>6.25 µg/mL
Cc1cc2c(c(=O)o1)C(C)CC(c1c(O)cc(C)oc1=O)O2	-	BACTEC	-	12.5 µg/mL	-	H37Rv	inhibition	15%
CCN1C(=O)Cc2cc(C(=O)CN3CCN(c4noc5ccccc45)CC3)ccc21	-	visual reading / absorbance	-	-	-	H37Rv	MIC	3.12 µg/mL
O=C(CCCC(=O)NNC(=S)Nc1ccc2ccccc2c1)NNC(=S)Nc1ccc2ccccc2c1	-	BACTEC	-	-	-	H37Rv	MIC bound	>12.5 µg/mL
CCOC(=O)Cc1cc(C2CCCC2)nc2ccccc12	-	-	-	6.25 µg/mL	-	H37Rv	inhibition	63%
COc1ccc2c(c1)CCc1c-2nc(N)nc1-c1nc(N)nc2c1CCc1cc(OC)ccc1-2	-	BACTEC	-	-	-	H37Rv	MIC bound	>12.5 µg/mL
CC1(C)CC[C@@]2(C)C(=C3CC[C@@H]4[C@@]5(C)CC[C@H](O)C(C)(C)[C@@H]5CC[C@@]4(C)[C@]3(C)C[C@@H]2O)C1	-	-	-	-	-	H37Rv	MIC	>64 µg/mL
CCN1C(=O)Cc2cc(C(=O)CN3CCN(c4ccc([N+](=O)[O-])cc4)CC3)ccc21	-	visual reading / absorbance	-	-	-	H37Rv	MIC	3.12 µg/mL
Cc1ccc(/C=C2/NC(=S)NC2=O)cc1	-	BACTEC	-	-	-	H37Rv	EC50	>6.25 µg/mL
O=c1c(O)c(-c2ccc(O)c(O)c2)oc2cc(O)ccc12	-	BACTEC	-	12.5 µg/mL	-	H37Rv	inhibition	16%
Cc1ccn2nc(S(=O)(=O)Nc3c(Br)ccc4cccnc34)nc2n1	-	visual reading	-	-	INH RIF resistant	X24	MIC50	0.5 µM
COC(=O)c1cc(C2C3CC4CC(C3)CC2C4)nc2ccccc12	-	-	-	6.25 µg/mL	-	H37Rv	inhibition	49%
O=C1Cc2cc(C(=O)CN3CCN(c4noc5c(Cl)cccc45)CC3)ccc2N1	-	visual reading / absorbance	-	-	-	H37Rv	MIC	>50 µg/mL
O=C1NC(=S)N/C1=C/c1ccc(Br)cc1	-	BACTEC	-	-	-	H37Rv	EC50	<6.25 µg/mL
CO[C@@H]1[C@@H](OC(N)=O)[C@@H](O)[C@H](Oc2ccc3c(O)c(NC(=O)c4ccc(O)c(CC=C(C)C)c4)c(=O)oc3c2C)OC1(C)C	-	BACTEC	-	-	-	H37Rv	MIC	128 µg/mL
CC1(C)CC[C@]2(C)[C@@H](O)C[C@]3(C)C(=CCC4[C@@]5(C)CC[C@H](O)C(C)(C)[C@@H]5CC[C@]43C)[C@@H]2C1	-	-	-	-	-	H37Rv	MIC	4 µg/mL
O=c1cc(N2CCOCC2)n2ccccc2n1	-	resazurin	-	-	-	H37Rv	MIC bound	>6.25 µg/mL
C#CCO/N=C/c1c2c(O)c3c(O)c(C)c4c(c3c1O)C(=O)[C@@](C)(O/C=C/[C@H](OC)[C@@H](C)[C@@H](OC(C)=O)[C@H](C)[C@H](O)[C@H](C)[C@@H](O)[C@@H](C)/C=C/C=C(/C)C(=O)N2)O4	-	-	-	-	-	H37Rv	MIC	0.2 µg/mL
C[N+](C)(C)CC(=O)N/N=C/C(O)C(O)C(O)C(O)CO	-	BACTEC	-	-	-	H37Rv	MIC bound	>12.5 µg/mL
CC1(C)CC[C@]2(CO)[C@@H](CO)C[C@]3(C)C(=CC[C@@H]4[C@@]5(C)CC[C@H](O)C(C)(C)[C@@H]5CC[C@]43C)[C@@H]2C1	-	-	-	-	-	H37Rv	MIC	32 µg/mL
CC(NNC(=O)c1ccncc1)c1ccc(Cl)c(Cl)c1	-	-	-	-	-	Isoniazid-resistant	MIC	>50 µg/mL
CC(C)=CCc1c2c(c3occ(-c4ccc(O)c(O)c4)c(=O)c3c1O)CCC(C)(C)O2	-	BACTEC	-	-	-	H37Rv	MIC	≥12.5 µg/mL
Oc1cc(Cl)ccc1Oc1ccc(Cl)cc1Cl	-	-	-	-	-	M307 (KATG S315T)	MIC	20 µM
O=C1NC(=S)N/C1=C/c1cccc(F)c1	-	BACTEC	-	-	-	H37Rv	EC50	<6.25 µg/mL
CC(C)=CCC[C@H](C)[C@@H]1CC[C@]2(C)[C@H]3CCC(=C(C)C)[C@@H](CCCO)[C@]3(C)CC[C@@]12C	-	-	-	-	-	H37Rv	MIC	>64 µg/mL
CN1C(=O)Cc2cc(C(=O)CN3CCN(c4noc5cccc(Cl)c45)CC3)ccc21	-	visual reading / absorbance	-	-	-	H37Rv	MIC	12.5 µg/mL
O=C(NN=Cc1ccc2c(c1)OCO2)c1ccc(-n2cc(-c3ccccc3)nn2)cc1O	-	resazurin	-	-	-	H37Rv	MIC	12.5 µg/mL
C1=C2CCCC/C=C\C=C\CCN3CC[C@@H]4[C@H](CCCCCC/C=C\C=C/CCN(C2)C[C@H]14)C3	-	-	-	-	-	H37Rv (ATCC 25618)	MIC	6.25 µg/mL
COc1ccc(/C=C2/NC(=S)NC2=O)c(OC)c1	-	BACTEC	-	6.25 µg/mL	-	H37Rv	inhibition	88%
C=Cc1ccccc1C=NNC(=O)c1ccc(-n2cc(-c3ccccc3)nn2)cc1O	-	resazurin	-	-	-	H37Rv	MIC	25 µg/mL
CO/N=C(\C)c1cccc(F)c1NS(=O)(=O)c1nc2c(F)cnc(OC)n2n1	-	visual reading	-	-	INH RIF resistant	X24	MIC50	1 µM
C/C=C/CO/N=C/c1c2c(O)c3c(O)c(C)c4c(c3c1O)C(=O)[C@@](C)(O/C=C/[C@H](OC)[C@@H](C)[C@@H](OC(C)=O)[C@H](C)[C@H](O)[C@H](C)[C@@H](O)[C@@H](C)/C=C/C=C(/C)C(=O)N2)O4	-	-	-	-	-	H37Rv	MIC	0.1 µg/mL
CN1C(=O)Cc2cc(C(=O)CN3CCN(c4ccccn4)CC3)ccc21	-	visual reading / absorbance	-	-	-	H37Rv	MIC	3.12 µg/mL
CC1=C[C@H](O)[C@@]2(C)C(C3CCC4[C@@]5(C)CC[C@H](O)C(C)(C)C5CC[C@@]4(C)[C@]3(C)C[C@@H]2O)[C@@H]1C	-	-	-	-	-	H37Rv	MIC	>64 µg/mL
CC(NNC(=O)c1ccncc1)c1ccc(F)cc1	-	-	-	-	-	H37Rv	MIC	1.6 µg/mL
CC(=O)NNc1nc(C)c(C(=O)NNC(=O)C(=O)Nc2ccc(Cl)c([N+](=O)[O-])c2)s1	-	resazurin	-	6.25 µg/mL	-	H37Rv	inhibition	23%
O=C1NC(=S)N/C1=C/c1cccc(Oc2ccccc2)c1	-	BACTEC	-	6.25 µg/mL	-	H37Rv	inhibition	78%
COCN1C(=O)N2C(c3ccccc3)(c3ccccc3)C(C(=O)OC)=C(C(=O)OC)P12(c1ccccc1)c1ccccc1	-	BACTEC	-	-	-	H37Rv	MIC bound	>12.5 µg/mL
CCN1C(=O)Cc2cc(C(=O)CN3CCN(c4ccccn4)CC3)ccc21	-	visual reading / absorbance	-	-	-	H37Rv	MIC	1.56 µg/mL
N#C[B][n+]1ccc(C(=O)NNCC(F)(F)F)cc1	inside macrophages	colony count	Macrophages	-	-	Erdman	EC50	<1.14 µg/mL
O=C(O)c1cc(C2CCCCC2)nc2ccccc12	-	-	-	-	-	H37Rv	MIC	>6.25 µg/mL
Nc1ccc2c(c1)S(=O)(=O)c1cc(N)ccc1-2	-	BACTEC	-	-	-	H37Rv	MIC bound	>12.5 µg/mL
CN1C(=O)Cc2cc(C(=O)CN3CCN(c4noc5ccccc45)CC3)ccc21	-	visual reading / absorbance	-	-	-	H37Rv	MIC	6.25 µg/mL
CO[C@H]1/C=C/O[C@@]2(C)Oc3c(C)c(O)c4c(O)c(c(/C=N/OCc5ccc(Cl)cc5Cl)c(O)c4c3C2=O)NC(=O)/C(C)=C\C=C\[C@H](C)[C@H](O)[C@@H](C)[C@@H](O)[C@@H](C)[C@H](OC(C)=O)[C@@H]1C	-	-	-	-	-	H37Rv	MIC	>5 µg/mL
CO[C@H]1/C=C/O[C@@]2(C)Oc3c(C)c(O)c4c(=O)c(c5oc6cc(N7CCN(CC(C)C)CC7)cc(=O)c6nc5c4c3=C2O)NC(=O)/C(C)=C\C=C\[C@H](C)[C@H](O)[C@@H](C)[C@@H](O)[C@@H](C)[C@H](OC(C)=O)[C@@H]1C	-	-	-	-	-	22 strains (rifampicin-susceptible)	MIC50	≤0.05 µg/mL
O=C(NNCc1ccccc1F)c1ccncc1	-	-	-	-	-	Ethambutol-resistant	MIC	0.39 µg/mL
CC1C(=O)Nc2ccc(C(=O)CN3CCN(c4noc5cc(Cl)ccc45)CC3)cc21	-	visual reading / absorbance	-	-	-	H37Rv	MIC	12.5 µg/mL
O=C1NC(=S)N/C1=C/c1cccc(C(F)(F)F)c1	-	BACTEC	-	6.25 µg/mL	-	H37Rv	inhibition	42%
O=C(CNS(=O)(=O)Cc1ccccc1)NCC(=O)NNc1ccccc1	-	BACTEC	-	12.5 µg/mL	-	H37Rv	inhibition	45%
CO[C@H]1/C=C/O[C@@]2(C)Oc3c(C)c(O)c4c(O)c(c(/C=N/OCCN5CCN(C)CC5)c(O)c4c3C2=O)NC(=O)/C(C)=C\C=C\[C@H](C)[C@H](O)[C@@H](C)[C@@H](O)[C@@H](C)[C@H](OC(C)=O)[C@@H]1C	-	-	-	-	-	H37Rv	MIC	5 µg/mL
O=C(CNC(=O)OCc1ccccc1)NC(CO)C(=O)OCc1ccccc1	-	BACTEC	-	-	-	H37Rv	MIC bound	>12.8 µg/mL
C[C@H]1[C@H](C)CC[C@]2(C)CC[C@]3(C)C(=CC[C@@H]4[C@@]5(C)CC[C@H](O)C(C)(C)[C@@H]5CC[C@]43C)[C@H]12	-	-	-	-	-	H37Rv	MIC	32 µg/mL
NC(=O)c1ccc(N)nc1	-	BACTEC	-	-	-	H37Rv	MIC	≥12.5 µg/mL
CO[C@H]1/C=C/O[C@@]2(C)Oc3c(C)c(O)c4c(O)c(c(/C=N/OC/C=C(\C)CCC=C(C)C)c(O)c4c3C2=O)NC(=O)/C(C)=C\C=C\[C@H](C)[C@H](O)[C@@H](C)[C@@H](O)[C@@H](C)[C@H](OC(C)=O)[C@@H]1C	-	-	-	-	-	H37Rv	MIC	5 µg/mL
O=C(N=Nc1c(O)[nH]c2ccc(S(=O)(=O)O)cc12)c1ccc(-n2cc(-c3ccccc3)nn2)cc1O.[Na+]	-	resazurin	-	-	-	H37Rv	MIC	>25 µg/mL
C/C(=N\NC(=O)c1ccncc1)c1ccccc1F	-	-	-	-	-	H37Rv (rifampin-resistant)	MIC	1 µg/mL
Cc1nnc2n1N=C(c1ccc(O)c(O)c1O)CS2.Cl	-	BACTEC	-	-	-	H37Rv	MIC bound	>12.5 µg/mL
C[C@@H]1CC[C@@]2(C)C(C3=CCC4[C@@]5(C)CC[C@H](O)C(C)(C)C5CC[C@@]4(C)[C@]3(C)C[C@@H]2O)[C@H]1C	-	-	-	-	-	H37Rv	MIC	>64 µg/mL
O=C(NN=Cc1c(Cl)cccc1Cl)c1ccc(-n2cc(-c3ccccc3)nn2)cc1O	-	resazurin	-	-	-	H37Rv	MIC	3.12 µg/mL
CCCO/N=C/c1c2c(O)c3c(O)c(C)c4c(c3c1O)C(=O)[C@@](C)(O/C=C/[C@H](OC)[C@@H](C)[C@@H](OC(C)=O)[C@H](C)[C@H](O)[C@H](C)[C@@H](O)[C@@H](C)/C=C/C=C(/C)C(=O)N2)O4	-	-	-	-	-	H37Rv	MIC	0.05 µg/mL
O=C(Nc1c(Cl)c(C2CC2)nn1-c1ccccc1)C(Cl)(Cl)Cl	-	BACTEC	-	-	-	H37Rv	MIC bound	>12.5 µg/mL
Nc1nc(-n2cc(C(=O)O)c(=O)c3cc(F)c(N4CC(O)C4)c(Cl)c32)c(F)cc1F	-	-	-	-	-	22 strains (rifampicin-susceptible)	MIC50	0.39 µg/mL
O=C(O)c1ccc(=O)[nH]n1	-	BACTEC	-	12.5 µg/mL	-	H37Rv	inhibition	0%
CC(C)c1ccc(/C=C2/NC(=S)NC2=O)cc1	-	BACTEC	-	-	-	H37Rv	EC50	<6.25 µg/mL
Cc1occc1C(=S)Nc1ccc(Cl)c(/C=N/OC(C)C)c1	-	BACTEC	-	12.5 µg/mL	-	H37Rv	inhibition	92%
CO[C@H]1/C=C/O[C@@]2(C)Oc3c(C)c(O)c4c(O)c(c(/C=N/OC5CCCCC5)c(O)c4c3C2=O)NC(=O)/C(C)=C\C=C\[C@H](C)[C@H](O)[C@@H](C)[C@@H](O)[C@@H](C)[C@H](OC(C)=O)[C@@H]1C	-	-	-	-	-	H37Rv	MIC	0.2 µg/mL
COC(C)(C)[C@@H](O)CC[C@@H](C)[C@H]1CC[C@@]2(C)[C@@H]3CC[C@H]4C(C)(C)[C@@H](O)CC[C@@]45C[C@@]35CC[C@]12C	-	-	-	-	-	H37Rv	MIC	>64 µg/mL